Anti-infective test results gathered from many reports (values: NIAID ChemDB through PubChem).

Shared fields: tests in culture; agent: Herpes simplex virus 1; method: plaque count; endpoint: EC50

Neighbouring rows are from separate reports. ECn is the concentration giving n% inhibition of infection, replication or growth. An empty or dashed field is not shown.

structure,strain or isolate,cell line,result
Nc1nc2c(ncn2CCC(CO)CO)c(=O)[nH]1,KD1,VERO,122.7 µM
O=c1[nH]c(=O)n([C@@H]2O[C@H](CO)[C@@H](O)[C@@H]2O)cc1/C=C/Br,VR-3,HEL,0.08 µM
Cn1cc(C(=O)NCc2ccc(Cl)cc2)c(=O)c2cc(CN3CCOCC3)ccc21,DJL,VERO,2.6 µM
Nc1nc2c(ncn2C/C=C\CO)c(=O)[nH]1,KJ502,VERO,1 µM
O=Cc1cn([C@@H]2O[C@H](CO)[C@@H](O)[C@@H]2O)c(=O)[nH]c1=O,V3,HELF,>500 µM
O=C(NCc1ccc(Cl)cc1)c1cn2c3c(cc(CN4CCOCC4)cc3c1=O)OC(c1cccnc1)C2,HL-3,HFF,9.7 µM
CC(=O)OC[C@H]1[C@H](COC(C)=O)[C@@H](CO)O[C@H]1n1cnc2c(N)ncnc21,Clinical isolate Wilson,MEF,152 µM
O=c1[nH]c(=O)n([C@@H]2O[C@H](CO)[C@@H](O)[C@@H]2O)cc1F,77,HELF,55 µM
O=C(O)P(=O)(O)O,K1,GMK,83.3 µM
CCCCCCCC/C=C\CCCCCCCCOCCOP(=O)(O)CO[C@H](CO)Cn1ccc(N)nc1=O,F,HFF,0.03 µM
Nc1nc(=O)n([C@@H]2CC[C@H](CO)O2)cc1F,WT-34,HEL,3.5 µM
[O-][n+]1onc2ncnc(N3CC[N+]4(CC3)CC[N+]3(CCN(c5ncnc6no[n+]([O-])c56)CC3)CC4)c21,K1,GMK,8.6 µM
CCCCCCCCCCCCOCCCOP1(=O)CO[C@@H](Cn2ccc(N)nc2=O)CO1,F,HFF,0.9 µM
Nc1nc2c(ncn2CCCC(CO)CO)c(=O)[nH]1,C1 (101),VERO,1.5 µM
Nc1nc2c(ncn2CC[C@H](O)CO)c(=O)[nH]1,C42,HEL,4 µM
O=C(O)P(=O)(O)O,ACG-resistant,RK-13,31 µM
Nc1ncnc2c1ncn2[C@@H]1C[C@H](CO)[C@@H](O)[C@@H]1O,F-FAU-C2,VERO,54 µM
Nc1ncnc2c1ncn2[C@@H]1O[C@H](CO)[C@@H](O)[C@@H]1O,KOS,VERO,26.1 µM
O=C(O)CP(=O)(O)O,McIntyre,MEF,30.8 µg/mL
O=c1[nH]c(=O)n([C@@H]2O[C@H](CO)[C@@H](O)[C@@H]2F)cc1I,F,VERO,0.014 µM
Nc1ccn(C[C@H]2COP(=O)(O)CO2)c(=O)n1,F,HFF,13.6 µM
Nc1nc2c(ncn2CC(CO)OCP(=O)(O)O)c(=O)[nH]1,Schooler,WI-38,0.9 µM
Nc1nc2c(ncn2COCCO)c(=O)[nH]1,HL-3,HFF,0.3 µg/mL
O=C(NCc1ccc(Cl)cc1)c1c[nH]c2ccc(CCCO)cc2c1=O,Patton,,20 µM
CCCCCCCC/C=C\CCCCCCCOCCCOP(=O)(O)CO[C@H](CO)Cn1ccc(N)nc1=O,HL-3,HFF,0.04 µM
Nc1nc(=O)n([C@@H]2O[C@H](CO)[C@@H](O)[C@@H]2F)cc1I,V3,VERO,0.25 µM
Cn1cc(C(=O)NCc2ccc(Cl)cc2)c(=O)c2cc(CN3CCOCC3)ccc21,HL-34,HFF,2.7 µM
Cc1cn([C@@H]2O[C@H](CO)[C@@H](O)[C@@H]2O)c(=O)[nH]c1=O,KOS-M1,VERO,3.6 µM
C[C@@H](c1ccccc1)N(CC(=O)Nc1ccc(-c2csc(N)n2)cc1)C(=O)c1ccncc1,615.8,BHK-21/C13,0.15 µM
CC(=O)OC[C@H]1[C@H](COC(C)=O)[C@@H](COC(C)=O)O[C@H]1n1cnc2c(N)ncnc21,E-377,MEF,123 µM
CCCCCCCCCCCCOCCCOP(=O)(O)CO[C@H](CO)Cn1ccc(N)nc1=O,F,HFF,0.5 µM
Nc1nc2c(ncn2CC[C@@H](O)CO)c(=O)[nH]1,C42,SIRC,1.4 µM
Nc1nc2c(ncn2COC(CO)CO)c(=O)[nH]1,ICI,VERO H,0.06 µM
O=c1ccn([C@@H]2O[C@H](CO)[C@@H](O)[C@@H]2F)c(=O)[nH]1,F-FAU-C2,VERO,49 µM
O=c1[nH]c(=O)n([C@@H]2O[C@H](CO)[C@@H](O)[C@@H]2O)cc1/C=C/Br,V3,HELF,0.55 µM
Nc1nc2c(ncn2C[C@]2(CO)C[C@H]2CO)c(=O)[nH]1,KOS,MRC-5,0.011 µg/mL
Nc1nc(=O)n([C@@H]2O[C@H](CO)[C@@H](O)[C@@H]2F)cc1I,F-FIAU-C1,VERO,11 µM

For reference, 4 entries again:

structure | strain or isolate | cell line | result
Nc1ncnc2c1ncn2[C@@H]1O[C@H](CO)[C@@H](O)[C@@H]1O | KOS | VERO | 26.1 µM
CC(=O)OC[C@H]1[C@H](COC(C)=O)[C@@H](CO)O[C@H]1n1cnc2c(N)ncnc21 | Clinical isolate Wilson | MEF | 152 µM
Nc1nc2c(ncn2CCC(CO)CO)c(=O)[nH]1 | KD1 | VERO | 122.7 µM
Nc1nc2c(ncn2COCCO)c(=O)[nH]1 | HL-3 | HFF | 0.3 µg/mL